Test results taken from ChEMBL document CHEMBL1138434, “Reversal of fluconazole resistance in multidrug efflux-resistant fungi by the Dysidea arenaria sponge sterol 9alpha,11alpha-epoxycholest-7-ene-3beta,5alpha,6alpha,19-tetrol 6-acetate” (J Nat Prod, 2003).
The source made the active and inactive calls.

What was measured:
Saccharomyces cerevisiae [1] = details: DSY 426, 25 uM
Saccharomyces cerevisiae [2] = details: DSY 417, 25 uM
Saccharomyces cerevisiae [3] = details: DSY 416, 25 uM
Saccharomyces cerevisiae [4] = details: DSY 415, 25 uM
Saccharomyces cerevisiae [5] = details: DSY 390, 25 uM

Measured: MIC

CC(C)[C@@H]1OC(=O)[C@@H](Cc2ccccc2)N(C)C(=O)[C@H](C(C)C)OC(=O)[C@@H](Cc2ccccc2)N(C)C(=O)[C@H](C(C)C)OC(=O)[C@@H](Cc2ccccc2)N(C)C1=O [BEAUVERICIN]
inactive: all assays above
